Data published in patent publication US20240109955A1 (published 2024).

Assays:
Experiment in all cases: cell-based or functional assay
[1] = target: SARS-CoV-2 spike protein, Omicron sublineage XBB (SARS-CoV-2, UniProt P0DTC2 14-1273)
[2] = target: SARS-CoV-2 spike protein, Omicron sublineage XBB1.5 (SARS-CoV-2, UniProt P0DTC2 14-1273)
[3] = target: SARS-CoV-2 spike (S) protein, Omicron sublineage BA.4/5 (SARS-CoV-2)
[4] = target: SARS-CoV-2 spike (S) protein, Omicron sublineage BQ.1 (SARS-CoV-2)
[5] = target: SARS-CoV-2 spike (S) protein, Omicron sublineage BQ.1.1 (SARS-CoV-2)
[6] = target: SARS-CoV-2 spike (S) protein, Omicron sublineage BA.2.75.2 (SARS-CoV-2)
[7] = target: SARS-CoV-2 spike (S) protein, Omicron sublineage XBB (SARS-CoV-2)

B1: E8 (antibody, V domains shown)
VH: QVTLRESGPALVKPTQTLTLTCTFSGFSLSTRGVCVSWIRQPPGKALEWLAFIDWDDDKYYNTSLKTRLTISKDTSKNQVVLTMTNVHPVDTATYYCARISSHHGSSWCTTFDYWGQGALVTVSA
VL: DTVMTQSPLSLPVTPGEPASISCRSSQSLLNSNGYNYLDWYVQKPGQSPQLLIYLGSNRASGVPDRFSGSGSGTDFTLKISRVEAEDVGVYYCMQPLQTPLFTFGPGTKVEIK
IC50, pseudovirus neutralization [1]: 61.5 nM | IC80, pseudovirus neutralization [1]: 705 nM | IC50, pseudovirus neutralization [2]: 284 nM | IC80, pseudovirus neutralization [2]: 319 nM

B2: MX1054 (trispecific antibody)
chain 1: QTVVTQEPSFSVSPGGTVTLTCGLSSGSVSTAYFPSWYQQTPGQAPRTLIYGTNTRSSGVPDRFSGSILGNKAALTITGAQADDESDYYCVLYMGRGIVVFGGGTKLTVLGGSSGEIVMTQSPAILSVSPGERATLSCRASQSVAINLAWYQQKPGQAPRLLIYAASSRATGIPGRFSGSGSETNFTLTISSLQSGDFAVYYCQQYITWPPSYTFGQGTKLEIKGGGGSGGSGSGGGGSASGSGEVQLVESGGALIQPGGSLRLSCAASGIIVSANYMSWVRQAPGKGLEWVSVIYSGGSTFYADSVKGRFTISRDNSKNTLYLEMNSLRAEDTAVYYCARDAPILGVSDWGQGTLVTVSSGGSSGQVQLVESGGGVVQPGRSLRLSCAASGFTLSSYGMHWVRQAPGKGLEWVAVISYDGSNKYYVDSVKGRFTISRDNSKNTLYLQMNSLRAEDTAVYYCRWAYWELLPDYYYGMDVWGQGTTVTVSSASGGSGDKTHTCPPCPAPELLGGPSVFLFPPKPKDTLMISRTPEVTCVVVDVSHEDPEVKFNWYVDGVEVHNAKTKPREEQYNSYVVSVLTVLHQDWLNGKEYKCKVSNKALPAPIEKTISKAKGQPREPQVYTLPPCRDELTKNQVSLWCLVKGFYPSDIAVEWESNGQPENNYKTTPPVLDSDGSFFKKLTVDKSRWQQGNVFSCSVLHEALHSHYTQKSLSLSPG
chain 2: EIVMTQSPAILSVSPGERATLSCRASQSVAINLAWYQQKPGQAPRLLIYAASSRATGIPGRFSGSGSETNFTLTISSLQSGDFAVYYCQQYITWPPSYTFGQGTKLEIKGGSSGDTVMTQSPLSLPVTPGEPASISCRSSQSLLNSNGYNYLDWYVQKPGQSPQLLIYLGSNRASGVPDRFSGSGSGTDFTLKISRVEAEDVGVYYCMQPLQTPLFTFGPGTKVEIKGGGGSGGSGSGGGGSASGSGQVTLRESGPALVKPTQTLTLTCTFSGFSLSTRGVCVSWIRQPPGKALEWLAFIDWDDDKYYNTSLKTRLTISKDTSKNQVVLTMTNVHPVDTATYYCARISSHHGSSWCTTFDYWGQGALVTVSAGGSSGEVQLVESGGALIQPGGSLRLSCAASGIIVSANYMSWVRQAPGKGLEWVSVIYSGGSTFYADSVKGRFTISRDNSKNTLYLEMNSLRAEDTAVYYCARDAPILGVSDWGQGTLVTVSSASGGSGDKTHTCPPCPAPELLGGPSVFLFPPKPKDTLMISRTPEVTCVVVDVSHEDPEVKFNWYVDGVEVHNAKTKPREEQYNSYVVSVLTVLHQDWLNGKEYKCKVSNKALPAPIEKTISKAKGQPREPQVCTLPPSRDELTKNQVSLSCAVKGFYPSDIAVEWESNGQPENNYKTTPPVLDSDGSFFLVSKLTVDKSRWQQGNVFSCSVLHEALHSHYTQKSLSLSPG
IC50, pseudovirus neutralization [3]: 0.00955 µg/mL | IC80, pseudovirus neutralization [3]: 0.0472 µg/mL | IC50, pseudovirus neutralization [4]: 0.025 µg/mL | IC80, pseudovirus neutralization [4]: 0.0535 µg/mL | IC50, pseudovirus neutralization [5]: 0.0205 µg/mL | IC80, pseudovirus neutralization [5]: 0.0386 µg/mL | IC50, pseudovirus neutralization [6]: 0.0131 µg/mL | IC80, pseudovirus neutralization [6]: 0.0354 µg/mL | IC50, pseudovirus neutralization [7]: 0.0177 µg/mL | IC80, pseudovirus neutralization [7]: 0.0299 µg/mL

B3: MX1062 (trispecific antibody)
chain 1: QTVVTQEPSFSVSPGGTVTLTCGLSSGSVSTAYFPSWYQQTPGQAPRTLIYGTNTRSSGVPDRFSGSILGNKAALTITGAQADDESDYYCVLYMGRGIVVFGGGTKLTVLGGSSGEIVMTQSPAILSVSPGERATLSCRASQSVAINLAWYQQKPGQAPRLLIYAASSRATGIPGRFSGSGSETNFTLTISSLQSGDFAVYYCQQYITWPPSYTFGQGTKLEIKGGGGSGGSGSGGGGSASGSGEVQLVESGGALIQPGGSLRLSCAASGIIVSANYMSWVRQAPGKGLEWVSVIYSGGSTFYADSVKGRFTISRDNSKNTLYLEMNSLRAEDTAVYYCARDAPILGVSDWGQGTLVTVSSGGSSGQVQLVESGGGVVQPGRSLRLSCAASGFTLSSYGMHWVRQAPGKGLEWVAVISYDGSNKYYVDSVKGRFTISRDNSKNTLYLQMNSLRAEDTAVYYCRWAYWELLPDYYYGMDVWGQGTTVTVSSASGGSGDKTHTCPPCPAPELLGGPSVFLFPPKPKDTLMISRTPEVTCVVVDVSHEDPEVKFNWYVDGVEVHNAKTKPREEQYNSYVVSVLTVLHQDWLNGKEYKCKVSNKALPAPIEKTISKAKGQPREPQVYTLPPCRDELTKNQVSLWCLVKGFYPSDIAVEWESNGQPENNYKTTPPVLDSDGSFFKKLTVDKSRWQQGNVFSCSVLHEALHSHYTQKSLSLSPG
chain 2: DTVMTQSPLSLPVTPGEPASISCRSSQSLLNSNGYNYLDWYVQKPGQSPQLLIYLGSNRASGVPDRFSGSGSGTDFTLKISRVEAEDVGVYYCMQPLQTPLFTFGPGTKVEIKGGSSGEIVMTQSPAILSVSPGERATLSCRASQSVAINLAWYQQKPGQAPRLLIYAASSRATGIPGRFSGSGSETNFTLTISSLQSGDFAVYYCQQYITWPPSYTFGQGTKLEIKGGGGSGGSGSGGGGSASGSGEVQLVESGGALIQPGGSLRLSCAASGIIVSANYMSWVRQAPGKGLEWVSVIYSGGSTFYADSVKGRFTISRDNSKNTLYLEMNSLRAEDTAVYYCARDAPILGVSDWGQGTLVTVSSGGSSGQVTLRESGPALVKPTQTLTLTCTFSGFSLSTRGVCVSWIRQPPGKALEWLAFIDWDDDKYYNTSLKTRLTISKDTSKNQVVLTMTNVHPVDTATYYCARISSHHGSSWCTTFDYWGQGALVTVSAASGGSGDKTHTCPPCPAPELLGGPSVFLFPPKPKDTLMISRTPEVTCVVVDVSHEDPEVKFNWYVDGVEVHNAKTKPREEQYNSYVVSVLTVLHQDWLNGKEYKCKVSNKALPAPIEKTISKAKGQPREPQVCTLPPSRDELTKNQVSLSCAVKGFYPSDIAVEWESNGQPENNYKTTPPVLDSDGSFFLVSKLTVDKSRWQQGNVFSCSVLHEALHSHYTQKSLSLSPG
IC50, pseudovirus neutralization [3]: 0.0158 µg/mL | IC80, pseudovirus neutralization [3]: 0.0216 µg/mL | IC50, pseudovirus neutralization [4]: 0.0179 µg/mL | IC80, pseudovirus neutralization [4]: 0.0924 µg/mL | IC50, pseudovirus neutralization [5]: 0.0178 µg/mL | IC80, pseudovirus neutralization [5]: 0.0204 µg/mL | IC50, pseudovirus neutralization [6]: 0.0162 µg/mL | IC80, pseudovirus neutralization [6]: 0.0345 µg/mL | IC50, pseudovirus neutralization [7]: 0.0183 µg/mL | IC80, pseudovirus neutralization [7]: 0.0393 µg/mL

B4: A23-58H/A23-58L93VGLTG (antibody, V domains shown)
VH: QMQLVQSGPEVKKPGTSVKVSCKASGFTFTSSAVQWVRQRQRLEWIGWIVVGSGNTNYAQKFQERVTITRDMSTSTAYMELSSLRSEDTAVYYCAAPNCSNVVCYDGFDIWGQGTMVTVSS
VL: EIVLTQSPGTLSLSPGERATLSCRASQSVSSSYLAWYQQKPGQAPRLLIYSASSRATGIPDRFSGSGSGTDFTLTISRLEPEDFAVYFCQQYVGLTGWTFGQGTKVEIK
IC50, pseudovirus neutralization [1]: > 10000 nM | IC80, pseudovirus neutralization [1]: > 10000 nM | IC50, pseudovirus neutralization [2]: > 10000 nM | IC80, pseudovirus neutralization [2]: > 10000 nM
